Common to all, as to type: biochemical
Holding throughout (conditions): WHO definition: reduced 5 to 50fold, highly reduced more than 50-fold to reference strain

Experiment [1] deals with NA of B/Darkhan/1484/2014 (H101N, E105K) (Influenza B virus, UniProt U5XBU0, E105K/H101N). Description: fluorescence-based NA inhibition assay (MUNANA), isolate B/Darkhan/1484/2014.
The target in experiment [2] is NA of B/Ulaanbaatar/1495/2014 (E105K) (Influenza B virus, UniProt U5XBU0, E105K). The experiment is described as follows: fluorescence-based NA inhibition assay (MUNANA), isolate B/Ulaanbaatar/1495/2014.
Experiment [3] concerns the target NA of B/Khentii/1137/2014 (G140R) (Influenza B virus, UniProt U5XBU0, G140R). Description: fluorescence-based NA inhibition assay (MUNANA), isolate B/Khentii/1137/2014.
Experiment [4] addresses NA of B/Ulaanbaatar/1113/2014 (I114T) (Influenza B virus, UniProt U5XBU0, I114T). Description: fluorescence-based NA inhibition assay (MUNANA), isolate B/Ulaanbaatar/1113/2014.

For `CC(=O)N[C@H]1[C@H]([C@H](O)[C@H](O)CO)OC(C(=O)O)=C[C@@H]1N=C(N)N`, the susceptibility category result in experiment [1] is “reduced susceptibility”; in experiment [2], “reduced susceptibility”; in experiment [3] it was “sensitive”; in experiment [4] it was “sensitive”.

Source of the values: paper PMC6237300, “Influenza B viruses circulated during last 5 years in Mongolia” (PLoS ONE, 2018).
